PubChem BioAssay AID1224833 | University of Georgia | 2016
The deposit covers about 12,000 reagents; below is a random part of them. Over the whole deposit, about 5,600 (46%) got an active call. 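Active calls cover z-scores past 1 in both directions, so they include lowered as well as raised rotavirus replication.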

Aim: 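Host factors restraining rotavirus as candidate antiviral genes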 (primary screen)
Cells: monkey MA104 kidney cells
Knock-down reagent: siRNA pool against human genes, 50 nM
Timing: 48 h knock-down before infection; read 24 h after infection
Challenge: infection with rotavirus strain RV3 two days after transfection; infectious dose for this stage not given
Read-out: 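z-score of rotavirus antigen signal per well, from a fluorescent immunoassay, relative to non-targeting control wells on the same plate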
Direction: z-score vs non-targeting control: higher = more rotavirus replication than with non-targeting control
Hit rule: In these data the active calls have z-score vs non-targeting control at about -1 or lower, or at about 1 or higher
Meaning of the calls: active = z-score beyond 1 either way; inactive = z-score within 1 of zero

Depletion of TAF1C came out at: z-score vs non-targeting control -0.724; inactive.
LTV1 gave z-score vs non-targeting control 1.47; active.
Against SLC22A13 the deposit lists z-score vs non-targeting control -1.06; active.
For NACA2 the deposit lists z-score vs non-targeting control 0.579; inactive.
UBAC1 scored z-score vs non-targeting control -2.14; active.
With knock-down of NLGN1, the record shows z-score vs non-targeting control -1.4; active.
Knock-down of EPPIN resulted in: z-score vs non-targeting control -0.424; inactive.
After knock-down of SLC5A10, the screen gave z-score vs non-targeting control -0.843; inactive.
With knock-down of IQUB, the screen gave z-score vs non-targeting control 0.813; inactive.
Depletion of CLEC3A came out at: z-score vs non-targeting control 0.588; inactive.
Against TBCA, the values are z-score vs non-targeting control 0.611; inactive.
CLN6 scored z-score vs non-targeting control -0.269; inactive.
After knock-down of SLC7A7, the record shows z-score vs non-targeting control -2.12; active.
DCTN1 showed z-score vs non-targeting control 0.52; inactive.
Against C2orf69, the values are z-score vs non-targeting control -2.94; active.
Depletion of NDNF resulted in: z-score vs non-targeting control 1.73; active.
RGS11 showed z-score vs non-targeting control -0.87; inactive.
After knock-down of PCDHB8 the results were z-score vs non-targeting control -0.833; inactive.
For TNFAIP8, the values are z-score vs non-targeting control 0.887; inactive.
Against CGAS, the entry reads z-score vs non-targeting control -0.167; inactive.
After knock-down of GFI1B the results were z-score vs non-targeting control -1.71; active.
Knock-down of GNL1 resulted in: z-score vs non-targeting control 0.316; inactive.
After knock-down of ZXDB, the record shows z-score vs non-targeting control -2.07; active.
After knock-down of HIP1, the screen gave z-score vs non-targeting control -1.63; active.
For GNAO1 the deposit lists z-score vs non-targeting control -0.365; inactive.
With knock-down of LTA the results were z-score vs non-targeting control 0.693; inactive.
XPOT showed z-score vs non-targeting control 0.226; inactive.
ZNF200 scored z-score vs non-targeting control -1.31; active.
After knock-down of FBF1, the screen gave z-score vs non-targeting control -2.38; active.

In a second layout: entries from further up
gene | z-score vs non-targeting control | activity call
IQUB | 0.813 | inactive
CLEC3A | 0.588 | inactive
TBCA | 0.611 | inactive
CLN6 | -0.269 | inactive
SLC7A7 | -2.12 | active
DCTN1 | 0.52 | inactive
C2orf69 | -2.94 | active
NDNF | 1.73 | active
RGS11 | -0.87 | inactive
PCDHB8 | -0.833 | inactive

Further entries:
Silencing of CRTC2 gave: z-score vs non-targeting control -0.344; inactive.
TOPBP1 scored z-score vs non-targeting control 0.757; inactive.
Silencing of OSBPL6 came out at: z-score vs non-targeting control -0.0008; inactive.
Against GLB1L, the entry reads z-score vs non-targeting control -0.45; inactive.
Depletion of TRAPPC2 came out at: z-score vs non-targeting control -1.15; active.
IFNA17 scored z-score vs non-targeting control 1.87; active.
Against ZKSCAN8, the entry reads z-score vs non-targeting control -0.191; inactive.
For FAM124A the deposit lists z-score vs non-targeting control -1.37; active.
Silencing of INSL5 came out at: z-score vs non-targeting control -1.01; active.
Against BTBD6, the values are z-score vs non-targeting control -2.01; active.
For ZDHHC18, the entry reads z-score vs non-targeting control -0.403; inactive.
Against CGB3 the deposit lists z-score vs non-targeting control -0.253; inactive.
Silencing of ZNF263 came out at: z-score vs non-targeting control -0.808; inactive.
For LRMDA, the values are z-score vs non-targeting control -0.938; inactive.
KAT5 scored z-score vs non-targeting control -0.92; inactive.
IFT38 gave z-score vs non-targeting control 1.04; active.
ZNF740 showed z-score vs non-targeting control 1.67; active.
For MS4A6E the deposit lists z-score vs non-targeting control 0.911; inactive.
DMTN scored z-score vs non-targeting control -0.784; inactive.
After knock-down of TNPO3 the results were z-score vs non-targeting control -0.264; inactive.
Silencing of LRRC41 resulted in: z-score vs non-targeting control -1.5; active.
Depletion of KRT6C resulted in: z-score vs non-targeting control -1.95; active.
Knock-down of CAV2 came out at: z-score vs non-targeting control -0.959; inactive.
With knock-down of KAT6A, the record shows z-score vs non-targeting control -0.93; inactive.
NCOR1 gave z-score vs non-targeting control -1.13; active.
CYP2E1 scored z-score vs non-targeting control 2.44; active.
Against XKR9 the deposit lists z-score vs non-targeting control -0.975; inactive.
EFEMP2 showed z-score vs non-targeting control -1.07; active.
SCAF8 gave z-score vs non-targeting control -0.337; inactive.
After knock-down of SLC39A13 the results were z-score vs non-targeting control -0.35; inactive.
MID1IP1 showed z-score vs non-targeting control 1.77; active.
